Some entries repeat one wording, which the source may state once for all of them.
B1: FHR5: Complement Factor H-related 5, SEQ ID NO:10 (protein)
chain: MLLLFSVILISWVSTVGGEGTLCDFPKIHHGFLYDEEDYNPFSQVPTGEVFYYSCEYNFVSPSKSFWTRITCTEEGWSPTPKCLRMCSFPFVKNGHSESSGLIHLEGDTVQIICNTGYSLQNNEKNISCVERGWSTPPICSFTKGECHVPILEANVDAQPKKESYKVGDVLKFSCRKNLIRVGSDSVQCYQFGWSPNFPTCKGQVRSCGPPPQLSNGEVKEIRKEEYGHNEVVEYDCNPNFIINGPKKIQCVDGEWTTLPTCVEQVKTCGYIPELEYGYVQPSVPPYQHGVSVEVNCRNEYAMIGNNMITCINGIWTELPMCVATHQLKRCKIAGVNIKTLLKLSGKEFNHNSRIRYRCSDIFRYRHSVCINGKWNPEVDCTEKREQFCPPPPQIPNAQNMTTTVNYQDGEKVAVLCKENYLLPEAKEIVCKDGRWQSLPRCVESTAYCGPPPSINNGDTTSFPLSVYPPGSTVTYRCQSFYKLQGSVTVTCRNKQWSEPPRCLDPCVVSEENMNKNNIQLKWRNDGKLYAKTGDAVEFQCKFPHKAMISSPPFRAICQEGKFEYPICE
B2: FHR3: Complement Factor H-related 3, SEQ ID NO:6 and 7 (protein, UniProt Q02985 19-330, looked up)
Complement factor H-related …: QVKPCDFPDIKHGGLFHENMRRPYFPVAVGKYYSYYCDEHFETPSGSYWDYIHCTQNGWSPAVPCLRKCYFPYLENGYNQNYGRKFVQGNSTEVACHPGYGLPKAQTTVTCTEKGWSPTPRCIRVRTCSKSDIEIENGFISESSSIYILNKEIQYKCKPGYATADGNSSGSITCLQNGWSAQPICINSSEKCGPPPPISNGDTTSFLLKVYVPQSRVEYQCQPYYELQGSNYVTCSNGEWSEPPRCIHPCIITEENMNKNNIKLKGRSDRKYYAKTGDTIEFMCKLGYNANTSILSFQAVCREGIVEYPRCE
B3: FHR1: Complement Factor H-related 1, SEQ ID NO:3 (protein)
chain: MWLLVSVILISRISSVGGEATFCDFPKINHGILYDEEKYKPFSQVPTGEVFYYSCEYNFVSPSKSFWTRITCTEEGWSPTPKCLRLCFFPFVENGHSESSGQTHLEGDTVQIICNTGYRLQNNENNISCVERGWSTPPKCRSTDTSCVNPPTVQNAHILSRQMSKYPSGERVRYECRSPYEMFGDEEVMCLNGNWTEPPQCKDSTGKCGPPPPIDNGDITSFPLSVYAPASSVEYQCQNLYQLEGNKRITCRNGQWSEPPKCLHPCVISREIMENYNIALRWTAKQKLYLRTGESAEFVCKRGYRLSSRSHTLRTTCWDGKLEYPTCAKR
B4: FHR2: Complement Factor H-related 2, SEQ ID NO:4 and 5 (protein, UniProt P36980 19-270, looked up)
Complement factor H-related …: EAMFCDFPKINHGILYDEEKYKPFSQVPTGEVFYYSCEYNFVSPSKSFWTRITCAEEGWSPTPKCLRLCFFPFVENGHSESSGQTHLEGDTVQIICNTGYRLQNNENNISCVERGWSTPPKCRSTISAEKCGPPPPIDNGDITSFLLSVYAPGSSVEYQCQNLYQLEGNNQITCRNGQWSEPPKCLDPCVISQEIMEKYNIKLKWTNQQKLYSRTGDIVEFVCKSGYHPTKSHSFRAMCQNGKLVYPSCEEK
B5: FHR4: Complement Factor H-related 4 (FHR4A, FHR4B), SEQ ID NO:8 and 9 (protein, UniProt Q92496 20-578, looked up)
Complement factor H-related …: EVKPCDFPEIQHGGLYYKSLRRLYFPAAAGQSYSYYCDQNFVTPSGSYWDYIHCTQDGWSPTVPCLRTCSKSDVEIENGFISESSSIYILNEETQYNCKPGYATAEGNSSGSITCLQNGWSTQPICIKFCDMPVFENSRAKSNGMWFKLHDTLDYECYDGYESSYGNTTDSIVCGEDGWSHLPTCYNSSENCGPPPPISNGDTTSFPQKVYLPWSRVEYQCQSYYELQGSKYVTCSNGDWSEPPRCISMKPCEFPEIQHGHLYYENTRRPYFPVATGQSYSYYCDQNFVTPSGSYWDYIHCTQDGWLPTVPCLRTCSKSDIEIENGFISESSSIYILNKEIQYKCKPGYATADGNSSGSITCLQNGWSAQPICIKFCDMPVFENSRAKSNGMRFKLHDTLDYECYDGYEISYGNTTGSIVCGEDGWSHFPTCYNSSEKCGPPPPISNGDTTSFLLKVYVPQSRVEYQCQSYYELQGSNYVTCSNGEWSEPPRCIHPCIITEENMNKNNIQLKGKSDIKYYAKTGDTIEFMCKLGYNANTSVLSFQAVCREGIVEYPRCE
B6: FHL-1: truncated form of FH comprising the first seven CCP domains, SEQ ID NO:2 (protein, listed as Homo sapiens)
chain: MRLLAKIICLMLWAICVAEDCNELPPRRNTEILTGSWSDQTYPEGTQAIYKCRPGYRSLGNVIMVCRKGEWVALNPLRKCQKRPCGHPGDTPFGTFTLTGGNVFEYGVKAVYTCNEGYQLLGEINYRECDTDGWTNDIPICEVVKCLPVTAPENGKIVSSAMEPDREYHFGQAVRFVCNSGYKIEGDEEMHCSDDGFWSKEKPKCVEISCKSPDVINGSPISQKIIYKENERFQYKCNMGYEYSERGDAVCTESGWRPLPSCEEKSCDNPYIPNGDYSPLRIKHRTGDEITYQCRNGFYPATRGNTAKCTSTGWIPAPRCTLKPCDYPDIKHGGLYHENMRRPYFPVAVGKYYSYYCDEHFETPSGSYWDHIHCTQDGWSPAVPCLRKCYFPYLENGYNQNYGRKFVQGKSIDVACHPGYALPKAQTTVTCMENGWSPTPRCIRVSFTL

Experiment: Complement protein levels in blood of COVID-19 patients by mass spectrometry (one-way ANOVA, ROC)
Settings: first-test blood samples

Molecule	Level in blood of COVID-19 patients requiring assisted ventilation (group E) relative to healthy controls
B1	Statistically-significant elevations
B2	Statistically-significant elevations
B3	Statistically-significant elevations
B4	Statistically-significant elevations
B5	Statistically-significant elevations
B6	Statistically-significant elevations
